Experimental data: PubChem BioAssay AID504761 (Drosophila RNAi Screening Center, 2011)

- Test: 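Insect host genes that dengue virus relies on to spread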 (primary screen)
- Cell system: D.Mel-2 cells from Drosophila
- Reagent: long dsRNA against Drosophila genes
- Treatment: infection with dengue virus type 2; dose and infection time not stated
- Read-out: 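Per well on two replicate plates, imaging gave the percent of cells positive for viral envelope protein, ranked by infection, and a nuclear count of cells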
- Scale: infection score: higher = more virus-infected cells; cell count: higher = more cells in the well
- Call rule: 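Very low infection ranking in both replicate wells (chance probability at most 0.065), then a retest showing infection dropped 1.5-fold or more at p below 0.05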
- Meaning of the calls: active = confirmed: knock-down lowers infection; inactive = not picked or not confirmed
In all, the deposit lists about 22,000 reagents; this is a random part of those that have a named target and a result. Over the whole deposit, 116 (0.52%) were called active. 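Calls depend on retest data that are not deposited; infection was ranked per plate without normalising between plates; the unit of the infection score is not given.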 The raw values are shown without normalisation. A number with no mark means an inactive call. Not all columns of the deposit are shown. The record does not give: the amount of reagent, the time to read-out.

Silencing of Jhbp5 [DRSC14240] resulted in: infection score, replicate 1 = 5.25; cell count, replicate 1 = 6475.
For cer [DRSC05992], the entry reads infection score, replicate 1 = 0.93; cell count, replicate 1 = 6122.
Knock-down of mrt [DRSC15484] came out at: infection score, replicate 1 = 4.36; cell count, replicate 1 = 5867.
After knock-down of mrt [DRSC29283] the results were infection score, replicate 1 = 1.79; cell count, replicate 1 = 558.
For mRpL4 [DRSC03562] the deposit lists infection score, replicate 1 = 19.6; cell count, replicate 1 = 6302.
After knock-down of CG15717 [DRSC19684], the screen gave infection score, replicate 1 = 1.62; cell count, replicate 1 = 6563.
Knock-down of ana3 [DRSC06289] resulted in: infection score, replicate 1 = 26; cell count, replicate 1 = 5295.
Against ana3 [DRSC28049], the entry reads infection score, replicate 1 = 15; cell count, replicate 1 = 5634.
Against CG1801 [DRSC20556] the deposit lists infection score, replicate 1 = 6.36; cell count, replicate 1 = 5740.
Silencing of CG13690 [DRSC00359] resulted in: infection score, replicate 1 = 23.7; cell count, replicate 1 = 4810.
Against ZIPIC [DRSC16349] the deposit lists infection score, replicate 1 = 5.65; cell count, replicate 1 = 6146.
Silencing of spdi [DRSC18487] came out at: infection score, replicate 1 = 8.61; cell count, replicate 1 = 6690.
Silencing of spdi [DRSC18488] gave: infection score, replicate 1 = 3.1; cell count, replicate 1 = 6526.
Depletion of CG13361 [DRSC17896] came out at: infection score, replicate 1 = 11; cell count, replicate 1 = 4026.
With knock-down of CG13361 [DRSC29728], the screen gave infection score, replicate 1 = 11.9; cell count, replicate 1 = 6166.
